Assay: general procedure: Fmoc solid-phase peptide synthesis; Rink amide resin; benzotriazole-N,N,N',N'-tetramethyluronium hexafluorophosphate, 1-hydroxybenzotr
Settings: whole synthesis, scale of the general procedure 0.25 mol

With “His-Aib-Gln-Gly-Thr-Phe-Thr-Ser-Asp-Lys(PEG2-PEG2-γGlu-CO(CH2)18CO2H)-Ser-Lys-Tyr-Leu-Glu-Aib-Lys-Ala-Ala-Gln-Asp-Phe-Val-Glu-Trp-Leu-Lys-Ala-Gly-Gly-Pro-Ser-Ser-Gly-Ala-Pro-Pro-Pro-Ser-NH2” the “final HPLC purity” value was greater than 95%.
